Results of unrelated studies side by side (data: NIAID ChemDB).

Common to all: growth or infection tests; species: Herpes simplex virus 1; measure: inhibition

Percent inhibition refers to the dose given; in toxicity tests it is the harm to the cells.

smiles	tested at	cell line	read by	strain or isolate	result
N=c1ncn(Cc2ccco2)c2nc[nH]c12	6 µg/mL	BSC-1	plaque count		0%
O=[N+]([O-])c1ccc(NC(=S)Nc2ccc(Cc3ccc(NC(=S)Nc4ccc([N+](=O)[O-])cc4)cc3)cc2)cc1	30 µM	VERO	plaque count		>90%
Nc1nc2c(ncn2COC(CO)CO)c(=O)[nH]1	1.8 µM	WI-38	plaque count	KOS mutant PFA-R3	90%
O=c1[nH]c(=O)n([C@H]2C[C@H](O)[C@@H](CO)O2)cc1/C=C/Br	0.001 µg/mL	VERO	cytopathic effect		≥25%
NC(=Nc1ccc(Cc2ccc(N=C(N)c3ccccc3)cc2)cc1)c1ccccc1	30 µM	VERO	plaque count		>90%
N=c1ncn(CC2CCCCC2)c2nc[nH]c12	6 µg/mL	BSC-1	plaque count		0%
Nc1ccn([C@H]2O[C@@H](CO)[C@H](O)[C@H]2F)c(=O)n1	10 µM	VERO	virus yield	F	97.8%
N=c1ncn(Cc2cccc([N+](=O)[O-])c2)c2nc[nH]c12	50 µg/mL	BSC-1	plaque count		0%
S=C(NCCc1ccccc1)Nc1ccc(Oc2ccc(NC(=S)NCCc3ccccc3)cc2)cc1	5 µM	VERO	plaque count		<50%
Nc1nc2c(ncn2COCCO)c(=O)[nH]1	5 µg/mL	HL	virus yield	VL8737	38%
COc1cccc2c1C(=O)c1c(O)c3c(c(O)c1C2=O)C[C@@](O)(C(C)=O)C[C@@H]3O[C@H]1C[C@H](N)[C@H](O)[C@H](C)O1	0.5 µM	VERO	virus yield		0%
O=c1[nH]c(=O)n([C@H]2C[C@H](O)[C@@H](CO)O2)cc1CCCl	0.03 µg/mL	HEP-2	cytopathic effect		≥25%
N=c1ncn(Cc2ccc(Cl)cc2Cl)c2nc[nH]c12	6 µg/mL	BSC-1	plaque count		0%
Cc1cn([C@@H]2O[C@H](CO)[C@@H](O)[C@@H]2F)c(=O)[nH]c1=O	10 µM	VERO	virus yield	F	99.65%
O=c1ccn([C@H]2C[C@@H](O)[C@H](CO)O2)c(=O)[nH]1	100 µM	VERO	plaque count	C42	<0%
O=c1[nH]c(=O)n([C@@H]2O[C@H](CO)[C@@H](O)[C@@H]2F)cc1I	0.1 µM	VERO	virus yield	F	86%
Cc1ccc(NS(=O)(=O)c2cccc(S(=O)(=O)Nc3ccc(C)cc3)c2)cc1	5 µM	VERO	plaque count		<50%
C/C=C/c1cn([C@H]2C[C@H](O)[C@@H](CO)O2)c(=O)[nH]c1=O	10 µM	VERO	plaque count	TK-	0%
Cc1cn([C@@H]2O[C@H](CO)[C@@H](O)[C@@H]2F)c(=O)[nH]c1=O	0.03 µg/mL	VERO	cytopathic effect		≥25%
CCn1cnc(=N)c2[nH]cnc21	50 µg/mL	BSC-1	plaque count		0%
Nc1nc2c(ncn2COCCO)c(=O)[nH]1	0.9 µg/mL	VERO	virus yield	7401H	>99%
Nc1nc(=O)n([C@@H]2O[C@H](CO)[C@@H](O)[C@@H]2F)cc1I	1 µM	VERO	virus yield	F	99.95%
COc1ccc(NC(=S)Nc2ccc(Cl)cc2)cc1NC(=S)Nc1ccc(Cl)cc1	5 µM	VERO	plaque count		0%
O=c1ccn([C@@H]2O[C@H](CO)[C@@H](O)[C@@H]2F)c(=O)[nH]1	2.5 µM	VERO	virus yield	F	93.8%
O=S(=O)(c1ccc(O)cc1)c1ccc(OCc2ccc(Cl)cc2)cc1	5 µM	VERO	plaque count		0%
Nc1ncnc2nc(-c3cscn3)[nH]c12	10 µg/mL	VERO	plaque count		0%
COc1ccc(NC(=O)Nc2ccc(Cl)cc2)cc1NC(=O)Nc1ccc(Cl)cc1	30 µM	VERO	plaque count		<50%
Nc1nc2c(ncn2COC(CO)CO)c(=O)[nH]1	0.003 µg/mL	VERO	cytopathic effect		≥25%

For reference, 3 entries again:

smiles	tested at	cell line	read by	strain or isolate	result
N=c1ncn(Cc2cccc([N+](=O)[O-])c2)c2nc[nH]c12	50 µg/mL	BSC-1	plaque count		0%
O=c1ccn([C@@H]2O[C@H](CO)[C@@H](O)[C@@H]2F)c(=O)[nH]1	2.5 µM	VERO	virus yield	F	93.8%
CCn1cnc(=N)c2[nH]cnc21	50 µg/mL	BSC-1	plaque count		0%

Neighbouring rows are from separate reports. An empty or dashed field is not shown.